Measured values from several laboratories, pooled; numbers as filed in NIAID ChemDB.

Shared fields: growth or infection tests; species: Rhinovirus; endpoint: inhibition

Conditions beyond the fields shown may differ between rows. Inhibition is in % at the dose shown (toxicity tests: loss of growth or viability). For "inactive" no cut-off is given. Blank or dashed fields: not listed here. a–b is a range or a potency band.

SMILES,strain,cell line,method,dose,value
Cc1cc(-c2ccc(N=Nc3ccc4c(S(=O)(=O)O)cc(S(=O)(=O)O)c(N)c4c3O)c(C)c2)ccc1N=Nc1ccc2c(S(=O)(=O)O)cc(S(=O)(=O)O)c(N)c2c1O,,Human amnion AV3 cells,cytopathic effect,50 µg/mL,0%
COc1cc(/C=C/C(=O)Oc2c(-c3ccc(Cl)c(Cl)c3)oc3ccccc3c2=O)ccc1OC(C)=O,Serotype 1B,HeLa,plaque count,0.39 µM,6%
Cc1cccc(C2=CCN(c3ccc(Br)nn3)CC2)c1,17 serotypes,,,0.338 µg/mL,53%
Cc1ccc(Cn2cnc3c(N(C)C)nc(C(F)(F)F)nc32)cc1,TYPE 8,M-HELA,plaque count,2.5 µM,41%
COc1cc(/C=C/C(=O)Oc2c(-c3ccc(Cl)c(Cl)c3)oc3ccccc3c2=O)ccc1O,Serotype 14,HeLa,plaque count,1.56 µM,23%
O=S(=O)(O)c1ccc(N=Nc2c(O)ccc3cc(S(=O)(=O)O)ccc23)cc1,,Human embryonic lung cells,cytopathic effect,50 µg/mL,10%
Cc1ccccc1Cn1cnc2c(N(C)C)nc(C(F)(F)F)nc21,Serotype 8,M-HELA,plaque count,8 µM,44%
COc1cc(C(=O)Oc2c(-c3ccc(Cl)c(Cl)c3)oc3ccccc3c2=O)ccc1OC(C)=O,Serotype 14,HeLa,plaque count,1.56 µM,21%
CN(C)c1nc(C(F)(F)F)nc2c1ncn2Cc1ccc(Br)cc1,Serotype 13,M-HELA,plaque count,8 µM,40%
CCOC(=O)c1csc(N2CCN(Cc3cc(C)ccc3C)CC2)n1,100 serotypes,,,10 µg/mL,71%
Nc1ccc(S(=O)(=O)[O-])c2c(S(=O)(=O)[O-])ccc(O)c12,,Human amnion AV3 cells,cytopathic effect,5 µg/mL,0%
CN(C)c1nc(C(F)(F)F)nc2c1ncn2Cc1ccccc1,Serotype 31,M-HELA,plaque count,8 µM,37%
Cc1cccc(C2=CCN(c3ccc(Cl)nn3)CC2)c1,100 serotypes,,,2.6 µg/mL,71%
COc1cc(C(=O)Oc2c(-c3ccc(Cl)cc3)oc3ccccc3c2=O)cc(OC)c1O,Serotype 1B,HeLa,plaque count,0.54 µM,inactive
COc1ccc(Cn2cnc3c(N(C)C)nc(C(F)(F)F)nc32)cc1C,Serotype 18,M-HELA,plaque count,8 µM,35%
CCCCCCCCCCCCCCOc1ccc(C(C)=O)o1,100 serotypes,,,2 µg/mL,71%
CN(C)c1ccc(Cn2cnc3c(N(C)C)nc(C(F)(F)F)nc32)cc1,Serotype 3,M-HELA,plaque count,8 µM,33%
N#Cc1cc([N+](=O)[O-])ccc1Oc1ccc(Cl)c(Cl)c1,HANK,VERO,plaque count,2 µg/mL,100%
CSc1ccc(Cn2cnc3c(N(C)C)nc(C(F)(F)F)nc32)cc1,Serotype 21,M-HELA,plaque count,8 µM,35%
O=C(O)Cc1csc(/N=C2\SC[C@@H]3Cc4ccccc4CN23)n1,Serotype 4,MRC-5,cytopathic effect,7 µg/mL,80–100%
CN(C)c1nc(C(F)(F)F)nc2c1ncn2Cc1ccc(Cl)cc1Cl,Serotype 31,M-HELA,plaque count,8 µM,28%
Nc1ccc2c(O)cc(S(=O)(=O)[O-])cc2c1S(=O)(=O)[O-],,Human amnion AV3 cells,cytopathic effect,10 µg/mL,14%
Cc1cc(Cn2cnc3c(N(C)C)nc(C(F)(F)F)nc32)ccc1Cl,Serotype 3,M-HELA,plaque count,8 µM,44%
CC(=O)Oc1ccc(/C=C/C(=O)Oc2c(-c3ccc(Cl)c(Cl)c3)oc3ccccc3c2=O)cc1OC(C)=O,Serotype 1B,HeLa,plaque count,0.39 µM,13%

3 of the rows above, restated:

SMILES	strain	cell line	method	dose	value
Cc1ccccc1Cn1cnc2c(N(C)C)nc(C(F)(F)F)nc21	Serotype 8	M-HELA	plaque count	8 µM	44%
CCCCCCCCCCCCCCOc1ccc(C(C)=O)o1	100 serotypes			2 µg/mL	71%
COc1cc(/C=C/C(=O)Oc2c(-c3ccc(Cl)c(Cl)c3)oc3ccccc3c2=O)ccc1O	Serotype 14	HeLa	plaque count	1.56 µM	23%